Measured values from several laboratories, pooled; numbers as filed in NIAID ChemDB.

Common to all: tests in culture; species: Candida kefyr

Blank or dashed fields: not listed here. Neighbouring rows are from separate reports. Two numbers with a dash give a range or band. MIC50, MIC90 and the like: level of inhibition, or share of isolates inhibited.

structure | strain or isolate | read by | read-out | value
O=C1c2ccccc2CC1Cn1ccnc1 | RTCC 1074 | broth dilution | MIC | 64 µg/mL
O=C(NCCCCCCNC(=O)NNC(=O)c1ccccc1)NNC(=O)c1ccccc1 | - | - | MIC | 7.5 µg/mL
CCCCN(Cc1cn(Cc2ccccc2C#N)nn1)CC(O)(Cn1cncn1)c1ccc(F)cc1F | - | - | MIC80 | 0.0625 µg/mL
Cn1cccc1-c1n[nH]c(=O)n1CCCCCCn1c(-c2cccn2C)n[nH]c1=O | - | - | MIC | 7.5 µg/mL
O=C(CCn1ccnc1)c1ccc2ccccc2c1 | RTCC 1019 | broth dilution | MIC | 16 µg/mL
CCCCN(Cc1cn(Cc2cccc([N+](=O)[O-])c2)nn1)CC(O)(Cn1cncn1)c1ccc(F)cc1F | - | - | MIC80 | 0.0625 µg/mL
OC(CCn1ccnc1)c1cccc(C(O)c2ccc(Cl)c(Cl)c2)c1 | RTCC 1074 | broth dilution | MIC | 4 µg/mL
C[C@@H](c1ncncc1F)[C@](O)(Cn1cncn1)c1ccc(F)cc1F | - | - | MIC50 | 0.008–0.015 µg/mL
O=c1[nH]nc(-c2ccccc2)n1CCCCCCn1c(-c2ccccc2)n[nH]c1=O | - | - | MIC | 7.5 µg/mL
CCCCN(Cc1cn(Cc2ccc([N+](=O)[O-])cc2)nn1)CC(O)(Cn1cncn1)c1ccc(F)cc1F | - | - | MIC80 | 0.0625 µg/mL
O=C(CCn1ccnc1)c1cccc(C(O)c2ccc(Cl)c(Cl)c2)c1 | RTCC 1019 | broth dilution | MIC | 1 µg/mL
CCCCN(Cc1cn(Cc2ccc(Cl)cc2Cl)nn1)CC(O)(Cn1cncn1)c1ccc(F)cc1F | - | - | MIC80 | 16 µg/mL
CCOc1ccc2nc3cc(N=C4NC(=O)/C(=C\c5ccc([N+](=O)[O-])cc5)S4)ccc3c(N)c2c1 | ATCC 8614 | broth dilution | MIC | 250 µg/mL
CCCCCOc1ccc(-c2cc(-c3ccc(C(=O)N[C@H]4C[C@@H](O)[C@@H](O)NC(=O)[C@@H]5[C@@H](O)[C@@H](C)CN5C(=O)[C@H]([C@H](O)CC(N)=O)NC(=O)[C@H]([C@H](O)[C@@H](O)c5ccc(O)c(OS(=O)(=O)O)c5)NC(=O)[C@@H]5C[C@@H](O)CN5C(=O)[C@H]([C@@H](C)O)NC4=O)cc3)no2)cc1 | - | - | MIC50 | 0.015–0.5 µg/mL
OC(CCn1ccnc1)c1cccc(C(O)c2ccc(Br)cc2)c1 | RTCC 1074 | broth dilution | MIC | 8 µg/mL

For reference, 2 entries again:

| structure | strain or isolate | read by | read-out | value |
|---|---|---|---|---|
| O=C(CCn1ccnc1)c1cccc(C(O)c2ccc(Cl)c(Cl)c2)c1 | RTCC 1019 | broth dilution | MIC | 1 µg/mL |
| CCCCN(Cc1cn(Cc2ccc([N+](=O)[O-])cc2)nn1)CC(O)(Cn1cncn1)c1ccc(F)cc1F | - | - | MIC80 | 0.0625 µg/mL |